The source's definition of the ratio is not given here.
Test system: HIV
Assay: anti-HIV activity in acutely infected H9 cells
Assay type: cell-based

Row | SMILES | therapeutic index (TI)
1 | CC(C)=CCC/C(C)=C/CC[C@@]1(C)C=Cc2c(cc(C)c(C(=O)O)c2O)O1 [Daurichromenic acid] | 3,710
2 | CC(C)=CCC[C@@]1(C)[C@@H]2CC[C@]3(C)Oc4cc(C)c(C(=O)O)c(O)c4[C@H]1[C@H]23 [Rhododaurichromanic acids A, rhododaurichromanic acids A] | 91.9
